Measured values from several laboratories, pooled; numbers as filed in NIAID ChemDB.

All rows: whole-cell or culture tests; agent: Candida albicans; read-out: EC50

Conditions beyond the fields shown may differ between rows. ECn: concentration that inhibits the pathogen or its effect by n%. Blank or dashed fields: not listed here.

compound	strain	cells	result
C/C=C/c1ccc(OC(=O)/C(C)=C/C)cc1	ATCC 90028		>50 µg/mL
O=[N+]([O-])c1ccc(Oc2ccnc(Oc3ccc([N+](=O)[O-])cc3)n2)cc1			14.16 µg/mL
C[C@H]1[C@H](O)[C@@H](C)/C=C/C=C/C=C/C=C/C=C/C=C/C=C/[C@H](O[C@@H]2O[C@H](C)[C@@H](O)[C@H](N)[C@@H]2O)C[C@@H]2O[C@](O)(C[C@@H](O)C[C@@H](O)CC[C@H](O)[C@@H](O)C[C@@H](O)CC(=O)O[C@H]1C)C[C@H](O)[C@H]2C(=O)O	ATCC 10231		>100 µM
Cc1ccc(-c2cn(-c3ccc(C)cc3)c(C)c2C(=O)O)cc1	40 strains		<93.79 µg/mL
Cc1cnc(Oc2ccc(Br)cc2)nc1Oc1ccc(Br)cc1			22.8 µg/mL
CCN(CC)C(=O)Oc1c(OC)cc2ccnc3c2c1N(C)C=C3			>15 µg/mL
Cc1ccc(Oc2ncc(C)c(Oc3ccc(C)cc3)n2)cc1			18 µg/mL
COc1cc2ccnc3c2c(c1OC(=O)c1cccc(C)c1)N(C)C=C3			>15 µg/mL
CCCCOc1ccc(SCC#CCN2CCN(C)CC2)cc1	CNCM 1180-79		<78 µg/mL
CCC(c1ccc(OC)cc1)C(c1ccc(OC)cc1)n1cnnc1	28 strains		<256 µg/mL
OC(Cn1cncn1)(Cn1cncn1)c1ccc(F)cc1F			<5 µg/mL
CCC(c1ccc(Cl)cc1)C(O)c1ccc(OC)cc1	28 strains		>256 µg/mL
Cc1ccc(-c2cc(C=O)no2)cc1			37.36 µg/mL
OC[C@@H]1CO[C@](Cn2ccnc2)(c2ccc(-c3ccccc3)cc2)O1	44 strains		32 µg/mL
CCCCCc1ccc(C(=O)Oc2c(OC)cc3ccnc4c3c2N(C)C=C4)cc1			4.5 µg/mL
Cc1ccc(-n2cc(-c3ccc(Cl)cc3)c(C(=O)O)c2C)cc1	40 strains		>52.92 µg/mL
Cc1ccc(Sc2c(S(=O)c3ccccc3)c(O)c3ccccc3c2O)cc1			>0.2 µg/mL
CC(C)=CCC/C(C)=C/CC/C(C)=C/CO			>100 µg/mL
CCc1ccc(C(=O)Oc2c(OC)cc3ccnc4c3c2N(C)C=C4)cc1			10 µg/mL
CCC(c1ccc(OC)cc1)C(c1ccc(OC)cc1)n1cncn1	28 strains		>256 µg/mL
COc1cc(NC(C)CCCN)c2nc(C(C)(C)C)ccc2c1Oc1cccc(C(F)(F)F)c1			6.5 µg/mL
CS(=O)(=O)OC[C@H]1CO[C@](Cn2ccnc2)(c2ccc(-c3ccccc3)cc2)O1	44 strains		>256 µg/mL
COc1ccc(C(C(Cc2ccc(Cl)cc2Cl)c2ccc(Cl)cc2)n2cncn2)cc1	28 strains		>256 µg/mL
CC(=O)N1CCN(c2ccc(OC[C@H]3CO[C@](Cn4ccnc4)(c4ccc(Cl)cc4Cl)O3)cc2)CC1			<5 µg/mL
C=CCc1ccc(OC(=O)/C(C)=C/C)cc1	ATCC 90028		>50 µg/mL
Cc1c(C(=O)O)c(-c2ccc(Br)cc2)cn1-c1ccc(Cl)cc1	40 strains		>17.32 µg/mL
CC(=O)C1=C2C=C3C=C(/C=C/C(C)=C/[C@@H](C)CCO)OC=C3[C@@H](O)[C@]2(C)OC1=O			24.3 µg/mL
CCCOc1ccc(SCC#CI)cc1	CNCM 1180-79		<78 µg/mL
CCC(C(=O)c1ccc(OC)cc1)c1ccc(OC)cc1	28 strains		>256 µg/mL
CC1=C(CCO)C(=O)C(O)=C2C1=CC(=O)[C@@H]1C(C)(C)CCC[C@@]21C		VERO	0.12 µg/mL
O=C1C=C(S(=O)c2ccccc2)C(=O)c2ccccc21			>0.2 µg/mL
Clc1ccc(Nc2ccnc(Nc3ccc(Cl)cc3)n2)cc1			0.62 µg/mL
COc1cc2ccnc3c2c(c1OC(=O)c1ccccc1C)N(C)C=C3			>15 µg/mL
O=[N+]([O-])c1ccc(Sc2c(S(=O)c3ccccc3)c(O)c3ccccc3c2O)cc1			>0.2 µg/mL
COc1cc2ccnc3c2c(c1OC(=O)c1cc(F)ccc1F)N(C)C=C3			>15 µg/mL
O=S(c1ccccc1)c1c(Sc2ccc(Br)cc2)c(O)c2ccccc2c1O			>0.2 µg/mL
O=Cc1cc(-c2ccccc2Br)no1			29.57 µg/mL
CCCOc1ccc(SCC#CCCN2CCN(C)CC2)cc1	CNCM 1180-79		78 µg/mL
Cc1onc(-c2ccc(F)cc2)c1C=O			47.61 µg/mL
CC(C)[C@@H]1CC=CC2C3[C@](C)(CC[C@@]21CBr)[C@@H](Br)CC[C@@]3(C)O	ATCC 10231		>100 µM
COc1ccc(C(C(Cc2ccc(Cl)cc2Cl)c2ccc(Cl)cc2)n2cnnc2)cc1	28 strains		>256 µg/mL
Cc1ccc(-c2cn(-c3ccc(Br)cc3)c(C)c2C(=O)O)cc1	40 strains		<158 µg/mL
CC(=O)N1CCN(c2ccc(OCC3COC(Cn4ccnc4)(c4ccc(-c5ccccc5)cc4)O3)cc2)CC1	44 strains		32 µg/mL
CCOc1ccc(SCC#CCN2CCN(C)CC2)cc1	CNCM 1180-79		78 µg/mL
COc1ccc(CC(c2ccc(OC)cc2)n2cnnc2)cc1	28 strains		<256 µg/mL
O=Cc1cc(-c2ccc(F)cc2)no1			27.1 µg/mL
CCCCOc1ccc(SCC#CCN2CCOCC2)cc1	CNCM 1180-79		<78 µg/mL
COc1ccc(C(Cc2ccc(Cl)cc2)n2cnnc2)cc1	28 strains		<256 µg/mL
Cc1c(C(=O)O)c(-c2ccc(Cl)cc2)cn1-c1ccc(Br)cc1	40 strains		>24.85 µg/mL
CCC(C)n1ncn(-c2ccc(N3CCN(c4ccc(OC[C@H]5CO[C@](Cn6cncn6)(c6ccc(Cl)cc6Cl)O5)cc4)CC3)cc2)c1=O			<5 µg/mL
O=Cc1cc(-c2ccccc2Cl)no1			26.15 µg/mL
O=C1C(Sc2ccccc2)=C(Sc2ccccc2)C(=O)c2ccccc21			>0.2 µg/mL
CC1CCc2cc(F)cc3c(=O)c(C(=O)O)cn1c23	ATCC 10231		>100 µM
COc1cc2ccnc3c2c(c1OC(=O)c1ccc(F)cc1)N(C)C=C3			>15 µg/mL
Cc1ccc(Oc2ccnc(Oc3ccc(C)cc3)n2)cc1			16.8 µg/mL

5 of the rows above, restated:

compound | strain | cells | result
CC(C)=CCC/C(C)=C/CC/C(C)=C/CO |  |  | >100 µg/mL
O=Cc1cc(-c2ccccc2Br)no1 |  |  | 29.57 µg/mL
CCCCCc1ccc(C(=O)Oc2c(OC)cc3ccnc4c3c2N(C)C=C4)cc1 |  |  | 4.5 µg/mL
O=Cc1cc(-c2ccccc2Cl)no1 |  |  | 26.15 µg/mL
O=Cc1cc(-c2ccc(F)cc2)no1 |  |  | 27.1 µg/mL